# This is a selection; strong and weak results do not stand in their true shares. Active and inactive are the calls of the source. The call rests on the fitted dose curve; in most records, active means well fitted inhibition curve with a large enough effect; inconclusive means small, poorly fitted or top-dose-only effect; inactive means flat fitted curve, though single readings scatter.
# Biological target: pyruvate kinase (Trypanosoma brucei) (UniProt Q57TT1)
# Assay: qHTS of Trypanosoma Brucei Inhibitors; further: nearly all actives have a fitted effect of over 50% in size
# Conditions: TbPYK enzyme, Kinase-Glo Plus ATP luminescence, 45 min; at 76.8 µM (top of the series)
# On the % scale 0 is the no-effect control and ±100 the full control effect.
row,SMILES,"activity, negative = inhibition"
1,COc1ccc(OP(C)(=O)Nc2ccc(SC(F)(F)F)cc2)cc1 (stereo unspecified),inactive: 2.71%
